From patent US9212177B2, “Antiviral compounds and methods of making and using thereof” (Versitech Limited, priority 2009, dated 2015)

System: Influenza A H1N1\WSN\33
Type: cell-based, Influenza A virus

`Cc1onc(-c2ccccc2Cl)c1C(=O)N1CCN(c2ccc([N+](=O)[O-])cc2)CC1` [Compound 8, [4-(4-nitro-pheny1)-piperazin-1-yl]-[3-(2-chloro-phenyl)-5-methyl-isoxazol-4-yl]-methanone] was tested. Which “Selective Index (SI)” value did it give?
The value was over 49.

With `Cc1onc(-c2ccc(O)cc2)c1C(=O)N1CCN(c2ccc([N+](=O)[O-])cc2Cl)CC1` [Compound 1, [4-(2-chloro-4-nitro-pheny1)-piperazin-1-yl]-[3-(4-hydroxy-pheny1)-5-methylisoxazol-4-yl]-methanone] as the compound, how does the “Selective Index (SI)” value read?
The value was over 5000.

With `Cc1onc(-c2ccc(N=[N+]=[N-])cc2)c1C(=O)N1CCN(c2ccc([N+](=O)[O-])cc2Cl)CC1` [Compound 4, [4-(2-chloro-4-nitro-pheny1)-piperazin-1-yl]-[3-(4-azido-pheny1)-5-methylisoxazol-4-yl]-methanone] as the compound, how does the “Selective Index (SI)” value read?
The value was over 1000.

For `Cc1onc(-c2ccccc2Cl)c1C(=O)N1CCN(c2ccc([N+](=O)[O-])cc2Cl)CC1` [Compound 5, [4-(2-chloro-4-nitro-pheny1)-piperazin-1-yl]-[3-(2-chloro-phenyl)-5-methylisoxazol-4-yl]-methanone], which “Selective Index (SI)” value is on record?
Its value is over 6250.

The source's definition of the ratio is not given here.
